Measured values from several laboratories, pooled; numbers as filed in NIAID ChemDB.

Common to all: whole-cell or culture tests; organism: Mycobacterium tuberculosis

An empty or dashed field is not shown.

smiles	cells	measure	tested at	method	strain	result
CN(C)c1ccc(/C=N/NC(=O)c2ccccc2Cl)cc1		MIC				10 µg/mL
NNC(=O)c1ccncc1		EC50		fluorescence / absorbance	H37Rv	0.63 µM
O=C1c2cc(Br)ccc2-n2c1nc1ccccc1c2=O		MIC			MDR 10038	1 µg/mL
CCOc1ccc(C(=O)N/N=C/c2ccc(O)cc2)cc1		MIC				40 µg/mL
CC(C)=CCC1C(=O)C(CC=C(C)C)(CC=C(C)C)C(O)C(C(=O)C(C)C)C1O		MIC			Isolate I	20.3 µg/mL
O=C(N/N=C/c1ccccc1)c1cc(Cl)ccc1Cl		MIC				100 µg/mL
COc1ccc(CCNCCNCC23CC4CC(CC(C4)C2)C3)cc1OC		MIC				6.25 µM
CCC(C)c1cc(C)cc(OC(=O)c2ccc(N)cc2O)c1		MIC			H37Rv	2.5 µg/mL
Clc1ncnc2c1nc(-c1ccccc1)n2Cc1ccccc1		EC50		BACTEC	H37Rv	>12.5 µg/mL
O=[N+]([O-])c1cccc(CSc2nnc(-c3ccc([N+](=O)[O-])o3)s2)c1		inhibition	6.25 µg/mL		H37Rv	98%
CC(C)OC(=O)Nc1c(C#N)[n+]([O-])c2ccccc2[n+]1[O-]		MIC			H37Rv	<12.5 µg/mL
CCC(C)(C)NCCNCC(c1ccccc1)c1ccccc1		MIC				12.5 µM
O=C(N/N=C/c1ccccn1)c1ccncc1		MIC				0.1 µg/mL
CN[C@@H]1[C@H](O[C@H]2[C@H](O[C@H]3[C@H](O)[C@@H](O)[C@H](N=C(N)N)[C@@H](O)[C@@H]3N=C(N)N)O[C@@H](C)[C@]2(O)C=O)O[C@@H](CO)[C@H](O)[C@H]1O		MIC			Isolate I	>2 µg/mL
COc1ccc(CNCCNCCc2ccccc2F)c(OC)c1		MIC				25 µM
CCCCCCC(C)c1cc(CN(C)C)c(O)c(C2CCCCC2)c1		inhibition	12.5 µg/mL	BACTEC	H37Rv	7%
Cn1c([N+](=O)[O-])cnc1-c1nnc(SCc2cccc([N+](=O)[O-])c2)s1		MIC			H37Rv	>6.25 µg/mL
Clc1nc(-c2ccccc2)c2ncn(Cc3ccccc3)c2n1		EC50		BACTEC	H37Rv	<12.5 µg/mL
NC(=S)SCCC(=O)N1CCCC1		MIC bound		BACTEC	H37Rv	>12.5 µg/mL
CCCNc1sc(-c2ccc(OCc3c(Cl)cccc3Cl)cc2)cc1C(=O)O		MIC		resazurin	H37Rv	7.5 µM
CCCCCC(O)C/C=C\CCCCCCCC(=O)NN=C(C)C		MIC				>200 µg/mL
N#Cc1c(N)[n+]([O-])c2ccc(C(F)(F)F)cc2[n+]1[O-]		inhibition	6.25 µg/mL		H37Rv	99%
O=C(Nc1sc(-c2ccc(OCc3c(Cl)cccc3Cl)cc2)cc1C(=O)O)c1ccco1		MIC		resazurin	H37Rv	36.6 µM
CO[C@@]1(NC(=O)Cc2cccs2)C(=O)N2C(C(=O)O)=C(COC(N)=O)CS[C@@H]21		MIC			H37Ra	>16 µg/mL
CCOC(=O)C(NC(=O)c1ccccc1)(N1CCN(c2cc3c(cc2F)c(=O)c(C(=O)O)cn3C2CC2)CC1)C(F)(F)F		MIC bound		resazurin	H37Rv	<6.25 µg/mL
CC(=O)Nc1ccc(S(=O)(=O)NNC(=O)c2ccccc2)cc1		MIC				>200 µg/mL
C=CCSc1nnc(-c2ncc([N+](=O)[O-])n2C)s1		inhibition	6.25 µg/mL		H37Rv	37%
O=C(O)[C@H]1/C(=C/CO)O[C@@H]2CC(=O)N21		MIC			H37Ra	>16 µg/mL
CC(=O)OCc1cc(=O)n(C)c2c3c4c(cc12)c(C)cc(=O)n4CO3		inhibition	12.8 µg/mL	BACTEC	H37Rv	100%
O=[N+]([O-])c1cn2c(n1)OC[C@@H](OCc1ccc(OCc3ccccc3)cc1)C2		MIC			H37Rv-7A2 (PA-824-resistant)	>100 µM
Cc1cc(COC(=O)c2ccc(N)cc2O)ccc1C(C)C		MIC			Frankfurt	0.01 µg/mL
CC(C)(C)OC(=O)N1CCN(c2ccc3c(c2)-n2c(nc4ccccc4c2=O)C3=O)CC1		MIC			H37Rv	>5 µg/mL
CCCCCCCCCCCCCCCCNc1ccc(CNCCNC[C@@H](C)O)cc1		MIC				50 µM
COc1cccc2c1cc1c3c(cc4c(c32)OCO4)C(=O)N1		MIC		resazurin	H37RvRr	25 µg/mL
COC(=O)Nc1sc(-c2ccc(OCc3c(Cl)cccc3Cl)cc2)cc1C(=O)O		MIC		resazurin	H37Rv	3.7 µM
Clc1ccc(CCNCCNCc2ccccc2)c(Cl)c1		MIC				50 µM
O=C(Cc1cccs1)N[C@@H]1C(=O)N2C(C(=O)[O-])=C(C[n+]3ccccc3)CS[C@H]12		MIC			H37Ra	8 µg/mL
CCCCCCCCCCCNCCNC1CCCc2ccccc21		MIC				25 µM
NNC(=O)c1ccncc1		MIC			Isolate M1	1 µg/mL
Cc1cc(=O)n(-c2ccccc2)c2[nH]n(-c3ccccc3)c(=O)c12		inhibition	6.25 µg/mL	resazurin	H37Rv	18%
O=C(N/N=C/c1ccc([N+](=O)[O-])cc1)c1ccccc1Cl		MIC				100 µg/mL
O=C(Nc1sc(-c2ccc(OCc3ccccc3Cl)cc2)cc1C(=O)O)c1ccc(Cl)cc1		MIC		resazurin	H37Rv	31.7 µM
C=Cc1nc(Cl)c2ncn(Cc3ccccc3)c2n1		EC50		BACTEC	H37Rv	>12.5 µg/mL
CC(C)=NNC(=O)C1CCN1Cc1ccccc1		inhibition	12.5 µg/mL	BACTEC	H37Rv	9%
CC1(C)[C@H](C(=O)O)N2C(=O)C[C@H]2S1(=O)=O		MIC			Isolate 4	>16 µg/mL
C=CCc1cc(/C=N/NC(=O)c2ccncc2)ccc1O		MIC				0.1 µg/mL
O=C1c2cc(F)ccc2-n2c1nc1c(F)cccc1c2=O		MIC			H37Rv	<0.4 µg/mL
O=C(CC(=O)N/N=C/c1ccoc1)N/N=C/c1ccoc1		MIC				>100 µg/mL
c1ccc(Cn2cnc3cnc(-c4cccs4)nc32)cc1		EC50		BACTEC	H37Rv	>12.5 µg/mL
Cc1cc(C)c2nc3n(c(=O)c2c1)-c1ccc(F)cc1C3=O		MIC			MDR 10038	<0.3 µg/mL
COc1nc2ccc(Br)cc2cc1[C@@H](c1ccccc1)[C@@](O)(CCN(C)C)c1cccc2ccccc12		MIC90		fluorescence	H37Rv	0.06 µg/mL
CCCCNc1sc(-c2ccc(OCc3c(Cl)cccc3Cl)cc2)cc1C(=O)O		EC50		resazurin	H37Rv	35.56 µM
COc1nc2ccc(Br)cc2cc1[C@@H](c1ccccc1)[C@@](O)(CCN(C)C)c1cccc2ccccc12		MIC90		resazurin	clinical isolate MAL010077	0.03125 µg/mL
O=C(Nc1sc(-c2ccc(OCc3c(Cl)cccc3Cl)cc2)cc1C(=O)O)c1cccs1		MIC		resazurin	H37Rv	27.4 µM
NNC(=O)C1CCNCC1		MIC				>40 µg/mL
Cn1c([N+](=O)[O-])cnc1-c1nnc(SCc2ccccc2[N+](=O)[O-])s1		inhibition	6.25 µg/mL		H37Rv	0%
O=C(N/N=C/c1ccc(Cl)cc1)c1ccncc1		MIC				0.1 µg/mL
C=C1[C@@H](C)[C@H]2[C@H](Cc3ccccc3)NC(=O)[C@]23[C@H](OC(C)=O)/C=C/[C@](C)(O)C[C@@H](C)C/C=C/[C@H]3[C@@H]1O		MIC bound		BACTEC	H37Rv	>12.5 µg/mL
CCCCCC1(C)Cn2cc([N+](=O)[O-])nc2O1		MIC			H37Rv-5A2 (PA-824-resistant)	>100 µM
O=C(Nc1sc(-c2ccc(OCc3c(Cl)cccc3Cl)cc2)cc1C(=O)O)c1ccc(Cl)cc1		MIC		resazurin	H37Rv	3.7 µM
CC1=CC(=O)c2c(O)cccc2C1=O		MIC			H37Rv (ATCC 27294)	4.88 µg/mL
NNC(=O)c1ccncc1		MIC			Isolate M	>0.2 µg/mL
CCN(CC)CCNc1ccc([N+](=O)[O-])c2sc3cc(Cl)ccc3c(=O)c12		inhibition	12.5 µg/mL	BACTEC	H37Rv	97%
O=C(N/N=C/c1ccc([N+](=O)[O-])cc1)c1cccnc1		MIC				1–100 µg/mL
N#Cc1c(-c2ccccc2)ssc1=S		MIC		BACTEC	H37Rv	≥12.5 µg/mL
O=[N+]([O-])c1ccc(CSc2nnc(-c3ccc([N+](=O)[O-])o3)s2)cc1		inhibition	6.25 µg/mL		H37Rv	99%
CCCCC(CC)CN1CN(CC(CC)CCCC)CC(C)(NCCNC2CCCc3ccccc32)C1		MIC				50 µM
N#Cc1c(N)[n+]([O-])c2ccc(F)cc2[n+]1[O-]		inhibition	6.25 µg/mL		H37Rv	99%
O=C1c2ccccc2-n2c1nc1ccc(F)cc1c2=O		MIC			H37Rv	1.3 µg/mL
NNC(=O)C12CC3CC(CC(C3)C1)C2		inhibition	12.5 µg/mL	BACTEC	H37Rv	40%
COc1cc2c3c(c1OC)-c1cc4c(cc1CC3N(C=O)CC2)OCO4		MIC		resazurin	H37RvSr	>50 µg/mL
CCCCC(CC)CN1CN(CC(CC)CCCC)CC(C)(NCCNC(C)CC)C1		MIC				6.25 µM
COc1ccc2c(c1)N(CC(C)C[N+](C)(C)CCCCCCCCCC[N+](C)(C)CC(C)CN1c3ccccc3Sc3ccc(OC)cc31)c1ccccc1S2.[Br-].[Br-]		MIC bound		BACTEC	H37Rv	>12.5 µg/mL
O=C1c2cc(F)ccc2-n2c1nc1ccc(Cl)cc1c2=O		MIC			MDR 10038	<1 µg/mL
CN(C)c1ccc(/C=N/NC(=O)c2cccnc2)cc1		MIC				10 µg/mL
NC(=S)N/N=C/c1cc(Cl)c2nc(-c3ccccc3)ccc2c1		inhibition	12.5 µg/mL	BACTEC	H37Rv	92%
c1ccc(C2N=NC(c3ccccc3)O2)cc1		MIC				200 µg/mL
Nc1ccc2nc3n(c(=O)c2c1)-c1ccc(F)cc1C3=O		MIC			MDR 10038	5 µg/mL
COc1ccc(N=Nc2c(-c3ccccc3)nn(C(=S)S)c2-c2ccccc2)cc1		MIC		BACTEC	H37Rv	16 µg/mL
C#CCSc1nnc(-c2ncc([N+](=O)[O-])n2C)s1		MIC			H37Rv	>6.25 µg/mL
COc1ccccc1OC(=O)c1ccc(N)cc1O		MIC			Frankfurt	0.05 µg/mL
CC(C)CNc1sc(-c2ccc(OCc3c(Cl)cccc3Cl)cc2)cc1C(=O)O		MIC		resazurin	H37Rv	7.8 µM
NNC(=O)NN1C(=O)c2cc(S(=O)(=O)[O-])cc3c(N)c(S(=O)(=O)[O-])cc(c23)C1=O		inhibition	6.25 µg/mL	resazurin	H37Rv	-7%
c1ccc(-c2nnc(-c3ccccc3)s2)cc1		MIC				>200 µg/mL
O=C(/C=C/c1ccccc1)Cc1nc2nnc(NC(=O)Nc3ccc(Cl)cc3)n2[nH]c1=O		MIC bound		BACTEC	H37Rv	>12.5 µg/mL
Cc1ccc2c(c1)C(=O)c1nc3ccccc3c(=O)n1-2		MIC			MDR 10038	5 µg/mL
C/C(=N/NC(=S)NCc1ccccc1)c1nccnc1C		MIC			RMP-R	3.1 µg/mL
O=C(NN=C1CCCCC1)c1ccncc1		MIC				0.01–0.1 µg/mL
O=C1C2=Nc3ccccc3C(O)N2c2ccccc21	VERO	MIC		resazurin	H37Rv	6.25 µg/mL
Clc1nc(Br)nc2c1ncn2Cc1ccccc1		EC50		BACTEC	H37Rv	>12.5 µg/mL
Cc1ccc(N2C(=O)CCSC2=S)cc1Br		inhibition	12.5 µg/mL	BACTEC	H37Rv	5%
CC(C)=CCNc1sc(-c2ccc(OCc3c(Cl)cccc3Cl)cc2)cc1C(=O)O		MIC		resazurin	H37Rv	15.1 µM
Cc1noc(NS(=O)(=O)c2ccc(N=Nc3cc(N=Nc4ccc(S(=O)(=O)Nc5onc(C)c5C)cc4)c4c(NC(=O)C(Cl)Cl)cccc4c3OC(=O)C(Cl)Cl)cc2)c1C		inhibition	12.5 µg/mL	BACTEC	H37Rv	-4%
CCN(CC)c1ccc(/C=N/NC(=O)c2cccnc2)cc1		MIC				1 µg/mL
CCn1c(O)c(C(=O)Nc2cccs2)c(=O)n(CC)c1=S		MIC bound		BACTEC	H37Rv	≤12.5 µg/mL
Cc1ccc2nc(Cl)c(C#N)nc2c1		MIC			H37Rv	>12.5 µg/mL

MIC bound: limit read from a one-dose screen. Inhibition is in % at the dose shown (toxicity tests: loss of growth or viability). Two numbers with a dash give a range or band. ECn is the concentration giving n% inhibition of infection, replication or growth. Neighbouring rows are from separate reports. MIC50, MIC90 and the like: level of inhibition, or share of isolates inhibited.